Results of unrelated studies side by side (data: NIAID ChemDB).

Shared fields: tests on isolated targets; organism: Varicella zoster virus

Blank or dashed fields: not listed here. ICn is the concentration giving n% inhibition. Lines come from different laboratories, so protocols vary.

smiles,target,endpoint,strain,result
C[C@@H](O)Cn1cnc2c(Cl)nc(N)nc21,Thymidine kinase,Ki,-,1500 µM
CN(C)n1cc(C(=O)NCc2ccc(Cl)cc2)c(=O)c2cc(CN3CCOCC3)ccc21,DNA polymerase,IC50,-,0.58 µM
Nc1nc2c(ncn2CC(CCO)COP(=O)(O)OP(=O)(O)OP(=O)(O)O)c(=O)[nH]1,DNA polymerase,IC50,-,0.1 µM
Nn1cc(C(=O)NCc2ccc(Cl)cc2)c(=O)c2cc(CCCO)ccc21,DNA polymerase,IC50,-,0.15 µM
O=c1[nH]c(=O)n([C@H]2C[C@H](O)[C@@H](CO)O2)cc1/C=C/Br,Thymidylate synthetase,IC50,Kanno-Kohmura (TK-),14 µM
O=C(NCc1ccc(Cl)cc1)c1cn(N2CCOCC2)c2ccc(CN3CCOCC3)cc2c1=O,DNA polymerase,IC50,-,0.2 µM
Nc1ccn([C@@H]2O[C@H](CO)[C@@H](O)[C@@H]2O)c(=O)n1,Thymidylate synthetase,IC50,Kanno-Kohmura (TK-),>100 µM
CN1CCN(n2cc(C(=O)NCc3ccc(Cl)cc3)c(=O)c3cc(CN4CCOCC4)ccc32)CC1,DNA polymerase,IC50,-,0.34 µM
COc1ncnc2c1ncn2[C@@H]1O[C@H](CO)[C@@H](O)[C@@H]1O,Thymidine kinase,Ki,OKA,200 µM
O=c1[nH]c(=O)n([C@@H]2CO[C@H](CO)O2)cc1/C=C/Br,Thymidine kinase,Ki,-,125 µM
Nc1ccn([C@H]2CC[C@@H](CO)O2)c(=O)n1,Thymidylate synthetase,IC50,KANNO (TK+),>100 µM
C[C@@H](O)Cn1cnc2c(=O)[nH]cnc21,Thymidine kinase,Ki,-,2600 µM
Cn1cc(C(=O)NCc2ccc(Cl)cc2)c(=O)c2cc(/C=C\CO)cc(F)c21,DNA polymerase,IC50,TYPE 2,0.39 µM
COc1nc(Cl)nc2c1ncn2[C@@H]1O[C@H](CO)[C@@H](O)[C@@H]1O,Thymidine kinase,Ki,OKA,930 µM
C[C@H](Cn1cnc2c(N)ncnc21)OCP(=O)(O)O,Thymidylate synthetase,IC50,KANNO (TK+),>100 µM
C[C@@H](O)Cn1cnc2c(N)ncnc21,Thymidine kinase,Ki,-,3800 µM
O=c1[nH]c(=O)n([C@@H]2O[C@H](CO)[C@@H](O)[C@@H]2O)cc1/C=C/Br,Thymidylate synthetase,IC50,Kanno-Kohmura (TK-),>100 µM
O=C(NCc1ccc(Cl)cc1)c1cn(N2CCOCC2)c2ccc(CC3CCOCC3)cc2c1=O,DNA polymerase,IC50,-,0.1 µM

A second listing of 2 rows from above:

smiles,target,endpoint,strain,result
O=c1[nH]c(=O)n([C@@H]2CO[C@H](CO)O2)cc1/C=C/Br,Thymidine kinase,Ki,-,125 µM
Nc1nc2c(ncn2CC(CCO)COP(=O)(O)OP(=O)(O)OP(=O)(O)O)c(=O)[nH]1,DNA polymerase,IC50,-,0.1 µM